PubChem BioAssay AID1259414 – Drosophila RNAi Screening Center – 2018

- Test: 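Host factors increasing or decreasing Wolbachia levels in cultured fly cells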 (primary screen)
- System: Drosophila JW18 cells infected with Wolbachia
- Reagents: long dsRNA against Drosophila genes, 0.25 µg dsRNA per well of a 384-well plate
- Timing: 5 days
- Challenge: cells persistently infected with Wolbachia before knock-down; no added drug
- Detection: 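Imaged fluorescence in situ signal for Wolbachia 23S rRNA per DAPI-counted host cell, given as a robust z-score within each plate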
- Reading the numbers: Wolbachia per cell robust z: higher = more Wolbachia per host cell than the plate typical
- Call rule: 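Hit when robust z is 1.5 or more, or -1.5 or less, in at least two of three replicates; excludes dsRNAs with several or no targets, genes not expressed in JW18 and well A1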
The screen tested about 24,000 reagents; this is a random part of those that have a named target and a result. In the full data, about 1,210 (5%) got an active call. 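Inactive calls also include excluded dsRNAs with several or no targets, genes unexpressed in JW18, and well A1, regardless of score.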 The numbers tell different reagents against one gene apart.

CG32806 #1
- Wolbachia per cell robust z, rep 1: 0.63
- Wolbachia per cell robust z, rep 2: 1.14
- Wolbachia per cell robust z, rep 3: 0.683
- Outcome: inactive

CG32806 #2
- Wolbachia per cell robust z, rep 1: 0.357
- Wolbachia per cell robust z, rep 2: -1.11
- Wolbachia per cell robust z, rep 3: -0.586
- Outcome: inactive

CG32806 #3
- Wolbachia per cell robust z, rep 1: -0.377
- Wolbachia per cell robust z, rep 2: -0.428
- Wolbachia per cell robust z, rep 3: 0.098
- Outcome: inactive

Nfs1
- Wolbachia per cell robust z, rep 1: 2.11
- Wolbachia per cell robust z, rep 2: -1.14
- Wolbachia per cell robust z, rep 3: -0.671
- Outcome: inactive

Incenp #1
- Wolbachia per cell robust z, rep 1: 1.96
- Wolbachia per cell robust z, rep 2: -0.111
- Wolbachia per cell robust z, rep 3: 1.49
- Outcome: inactive

Incenp #2
- Wolbachia per cell robust z, rep 1: 0.359
- Wolbachia per cell robust z, rep 2: -0.398
- Wolbachia per cell robust z, rep 3: -0.908
- Outcome: inactive

Incenp #3
- Wolbachia per cell robust z, rep 1: 1.87
- Wolbachia per cell robust z, rep 2: 4.39
- Wolbachia per cell robust z, rep 3: 4.8
- Outcome: active

CG32228
- Wolbachia per cell robust z, rep 1: -0.167
- Wolbachia per cell robust z, rep 2: -1.53
- Wolbachia per cell robust z, rep 3: -1.25
- Outcome: inactive

Usp2 #1
- Wolbachia per cell robust z, rep 1: 0.895
- Wolbachia per cell robust z, rep 2: 0.914
- Wolbachia per cell robust z, rep 3: -0.791
- Outcome: inactive

Usp2 #2
- Wolbachia per cell robust z, rep 1: 1.22
- Wolbachia per cell robust z, rep 2: -0.461
- Wolbachia per cell robust z, rep 3: 0.883
- Outcome: inactive

Usp2 #3
- Wolbachia per cell robust z, rep 1: 0.121
- Wolbachia per cell robust z, rep 2: -0.136
- Wolbachia per cell robust z, rep 3: 0.616
- Outcome: inactive

Usp2 #4
- Wolbachia per cell robust z, rep 1: 0.508
- Wolbachia per cell robust z, rep 2: 0.543
- Wolbachia per cell robust z, rep 3: 0.729
- Outcome: inactive

tHMG2
- Wolbachia per cell robust z, rep 1: -0.195
- Wolbachia per cell robust z, rep 2: -1.61
- Wolbachia per cell robust z, rep 3: -1.31
- Outcome: inactive

Ilp8
- Wolbachia per cell robust z, rep 1: 1.54
- Wolbachia per cell robust z, rep 2: 0.624
- Wolbachia per cell robust z, rep 3: -0.558
- Outcome: inactive

CG17147 #1
- Wolbachia per cell robust z, rep 1: -1.07
- Wolbachia per cell robust z, rep 2: -0.232
- Wolbachia per cell robust z, rep 3: -7.49
- Outcome: inactive

CG17147 #2
- Wolbachia per cell robust z, rep 1: 0.471
- Wolbachia per cell robust z, rep 2: -0.58
- Wolbachia per cell robust z, rep 3: -0.309
- Outcome: inactive
